Experimental data from patent US5750391A, “Filariid nematode cysteine protease proteins” (Heska Corporation, priority 1995, dated 1998).

System: D. immitis larvae
Experiment: Effect of protease inhibitors on larval molting (L3 cultured in NI medium)
Assay type: cell-based, Dirofilaria immitis
Conditions: treated larvae

CC(C)C[C@H](NP(=O)(O)O[C@@H]1O[C@@H](C)[C@H](O)[C@@H](O)[C@H]1O)C(=O)N[C@@H](Cc1c[nH]c2ccccc12)C(=O)O [Phosphoramidon]
cuticle separation and escape from old cuticle: could not open up the old cuticle and escape
